## Share of PSTVd loop 15 variants by leaf site

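A pool of all variants was put on leaves of three Nicotiana benthamiana plants. Samples came from the inoculated region at 5 days, the leaf margin at 10 and upper systemic leaves at 12.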

Region: loop 15 of PSTVd (intermediate strain), upper and lower strand joined, each 5' to 3', the first 7 letters being the upper strand, closing pairs included. Wild type: GGAAACCGCUACUAC. Varied positions (N): GGAAACCGNNNNNNC.

Values are reads per thousand in the sample; higher means more abundant, 0 means not found. Each value is the mean of three plants. "Pool" is the share in the plasmid pool used as inoculum, on the same scale. The inoculated region was read from the minus strand, the other sites from the plus strand.

GGAAACCGAGACCAC (pool 0.352) gave inoculated region 0.288; leaf margin 0.0536; systemic leaves 0.0161. With GGAAACCGGUUCGCC (pool 0.240) the assay gave inoculated region 0.122; leaf margin 0.0141; systemic leaves 0.00537. GGAAACCGUUGAUAC (pool 0.304) gave inoculated region 0.394; leaf margin 0.136; systemic leaves 0.0714. GGAAACCGAAUUGCC (pool 0.288) gave inoculated region 0.102; leaf margin 0; systemic leaves 0.00537. With GGAAACCGCACAGGC (pool 0.240) the assay gave inoculated region 0.120; leaf margin 0.0134; systemic leaves 0. GGAAACCGUGGUGCC (pool 0.144) gave inoculated region 0.0694; leaf margin 0; systemic leaves 0.

For GGAAACCGGGGCAGC (pool 0.272) the result was inoculated region 0.125; leaf margin 0.0134; systemic leaves 0. GGAAACCGGAUGUAC (pool 0.176) gave inoculated region 0.376; leaf margin 0.106; systemic leaves 0.0161. For GGAAACCGAGGUGAC (pool 0.208) the result was inoculated region 0.0922; leaf margin 0.00539; systemic leaves 0. For GGAAACCGCUGAAUC (pool 0.272) the result was inoculated region 0.108; leaf margin 0; systemic leaves 0.0130. With GGAAACCGUACGCGC (pool 0.208) the assay gave inoculated region 0.136; leaf margin 0.0449; systemic leaves 0.00537. With GGAAACCGCUCGGAC (pool 0.352) the assay gave inoculated region 0.365; leaf margin 0.0980; systemic leaves 0.

With GGAAACCGGAAGAGC (pool 0.304) the assay gave inoculated region 0.124; leaf margin 0.00668; systemic leaves 0.00537. GGAAACCGCCACCAC (pool 0.160) gave inoculated region 0.319; leaf margin 0.130; systemic leaves 0.0591. For GGAAACCGGGUUGAC (pool 0.240) the result was inoculated region 0.153; leaf margin 0.0141; systemic leaves 0. GGAAACCGCAUUGGC (pool 0.208) read inoculated region 0.129; leaf margin 0; systemic leaves 0. GGAAACCGCCUGUCC (pool 0.144) gave inoculated region 0.0760; leaf margin 0.0141; systemic leaves 0. GGAAACCGCAAACCC (pool 0.240) read inoculated region 0.111; leaf margin 0; systemic leaves 0.00504.

GGAAACCGGGGUAAC (pool 0.208) read inoculated region 0.0913; leaf margin 0.420; systemic leaves 0.00504. GGAAACCGUCUUUCC (pool 0.112) gave inoculated region 0.137; leaf margin 0.0121; systemic leaves 0. With GGAAACCGAAAUGCC (pool 0.176) the assay gave inoculated region 0.0661; leaf margin 0; systemic leaves 0. GGAAACCGGGUACAC (pool 0.288) read inoculated region 0.0803; leaf margin 0; systemic leaves 0. GGAAACCGUUUCCUC (pool 0.288) read inoculated region 0.0814; leaf margin 0.0128; systemic leaves 0. With GGAAACCGUCAAAUC (pool 0.256) the assay gave inoculated region 0.106; leaf margin 0.0108; systemic leaves 0.00537.

GGAAACCGUUCAUGC (pool 0.240) read inoculated region 0.451; leaf margin 0.138; systemic leaves 0.0161. GGAAACCGUCAGUUC (pool 0.176) gave inoculated region 0.296; leaf margin 0.0967; systemic leaves 0.0537. GGAAACCGCAUAGUC (pool 0.192) gave inoculated region 0.0964; leaf margin 0.00742; systemic leaves 0. GGAAACCGUGUGGCC (pool 0.160) read inoculated region 0.0624; leaf margin 0.0134; systemic leaves 0. With GGAAACCGUGGGCUC (pool 0.304) the assay gave inoculated region 0.0622; leaf margin 0; systemic leaves 0. GGAAACCGCCAUGGC (pool 0.176) gave inoculated region 0.252; leaf margin 0.0341; systemic leaves 0.00537.

GGAAACCGCGUUUAC (pool 0.288) read inoculated region 0.317; leaf margin 0.140; systemic leaves 0.00537.

2 of these entries, quoted again:

sequence,pool,inoculated region,leaf margin,systemic leaves
GGAAACCGCCAUGGC,0.176,0.252,0.0341,0.00537
GGAAACCGGUUCGCC,0.240,0.122,0.0141,0.00537

Samples held 43,870 to 66,106 reads, so the smallest values rest on one or two reads. The authors trace changes outside the varied positions to PCR and sequencing errors or to mutation in the plant; presence does not show that a variant is infectious alone. For reference, wild type rose from 33.9 per thousand in the pool to 202, 200, 159 (inoculated region), 724, 746, 710 (leaf margin) and 856, 883, 880 (systemic leaves).

Values reported by Wu et al. 2024 (doi:10.1371/journal.ppat.1012142).